From article PMC4730234

Tests used:
[1] = system: RNA polymerase holoenzyme (sigma-saturated) (Escherichia coli); test: DNase I footprinting; conditions: footprint: 20 mM Tris-Cl pH 8.0, 50 mM KCl, 1 mM DTT, 5% glycerol, 100 ug/ml BSA, room temperature; commercial protein; label: FAM (3' end per Supplementary Fig 2 legend); probe letters rebuilt from the primers and the genome
[2] = system: RNA polymerase holoenzyme (sigma-saturated) (Escherichia coli); test: EMSA; conditions: 0.05-0.2 U RNAP; EMSA: 20 mM Tris-HCl pH 8.0, 10 mM NaCl, 1 mM EDTA, 1 mM DTT, 1 ug salmon sperm DNA, 3 ug BSA in 20 ul, 1.0 nM DNA, 30 C, 20 min; commercial protein; label: FAM; probe letters rebuilt from the primers and the genome

## ATGCTGAGAATGACGACCCGGGTCACGTTCTCTTAACGTCGAGGCGACGAACTTGAATCAATAGGCCAACGCCGTCAAAAAAATGGCGTGTTGTGCCTTGCGATGTGTTCGTTCTATGCCATAGTGCACTGCAACACGCGATTCAATGTTGGTCCCGGCACGTGTCGGGATGCAACTTCCTGTCGTACGTTCGTGCTGGCGCCTGAGCCGGTTGAATGCTGCGCGAGGTCCTGTCCCACCCAACAGAGGCAGCCAGCTACACGCATGAAGAAACTGATCGGACGACTCTGCCAAGGCCTCAGCCTGGCTCTGCTCTGCTCGATGTCGCTG (double strand) [gumB promoter 330 bp]
[1]
  binding result: binds

## CATCGAGCAGAGCAGAGCCAGGCTGAGGCCTTGGCAGAGTCGTCCGATCAGTTTCTTCATGCGTGTAGCTGGCTGCCTCTGTTGGGTGGGACAGGACCTCGCGCAGCATTCAACCGGCTCAGGCGCCAGCACGAACGTACGACAGGAAGTTGCATCCCGACACGTGCCGGGACCAACATTGAATCGCGTGTTGCAGTGCACTATGGCATAGAACGAACACATCGCAAGGCACAACACGCCATTTTTTTGACGGCGTTGGCCTATTGATTCAAGTTCGTCGCCTCGACGTTAAGAGAACGTGACCCGGGTCGTCATTCTCAGCATACGAACTCTAGCGTTTCCGGGCACTTACGGACGCCTACCGATCTCGACATGTAGCAGCCTGAACCGCAAAATAATTGCGCACAGGACTTGCATATGCCGCCTTGCAATATGCCGTTGCGCATAGTGACATAGCTTGGAATGCCATCGAACTGACATGTTGCGACGCAACAAAAAGGCCCACGTCTTGCGACATGGGCCTGTTGTT (double strand) [gumB promoter 529 bp]
[2]
  binding result: binds

For at least one entry, the source does not settle the construct or the ends of the probe.
